# Experimental data published in publication doi:10.1101/2025.05.22.655678.
# For at least one entry, the source does not settle the construct or the ends of the probe. Protein sequences can lack the tags named with them.
# Test system: T1, VchI (Vibrio cholerae)
# T1 sequence (limits assumed): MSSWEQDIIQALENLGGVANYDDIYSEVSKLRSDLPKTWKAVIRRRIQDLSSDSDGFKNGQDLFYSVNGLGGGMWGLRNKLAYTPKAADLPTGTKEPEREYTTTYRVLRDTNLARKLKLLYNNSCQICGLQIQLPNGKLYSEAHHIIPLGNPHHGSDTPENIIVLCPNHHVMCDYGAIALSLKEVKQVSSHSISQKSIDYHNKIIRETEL
# Experiment: EMSA
# Details: 0.5 uM VchI; N6-methyladenine in any context (M.EcoGII)
sequence,measurement,value
GGGCTACGTCTTGCTGGCGTTCGCGACACGAGGCTGGATGGCCTTCCCCATTATGATTCT (double strand),binding result,binds
